Results of unrelated studies side by side (data: NIAID ChemDB).

Shared fields: target-level tests; organism: HIV-1; protein: Integrase; endpoint: IC50

ICn is the concentration giving n% inhibition. a–b is a range or a potency band. Conditions beyond the fields shown may differ between rows. Blank or dashed fields: not listed here.

structure | method | mutations | conditions | strain or isolate | value
Nc1cc(S(=O)(=O)c2ccc(O)c(N)c2)ccc1O | 3′ processing |  |  |  | 4.5 µM
O=C1c2ccc(O)c(O)c2C(=O)N1Cc1cccc(Cc2cc(F)c(F)c(F)c2)c1 | 3′ processing |  |  |  | 9.8 µM
[N-]=[N+]=NCc1cccc(C(=O)CC(=O)C(=O)O)c1 | 3′ processing |  |  |  | 70 µM
C/C=C/[C@@H]1C=C[C@@H]2C[C@H](C)CC[C@H]2[C@]1(C)/C(O)=C1/C(=O)[C@@H](CO)N(C)C1=O | strand transfer |  |  |  | 7–15 µM
O=S(=O)(SC(Cl)(Cl)Cl)c1cccc(S(=O)(=O)c2cccc(S(=O)(=O)SC(Cl)(Cl)Cl)c2)c1 | 3′ processing |  |  |  | 20.7 µM
N#C/C(=C\c1ccc(O)c(O)c1)C(=O)NCN1CCN(C(=O)/C(C#N)=C/c2ccc(O)c(O)c2)CC1 | strand transfer |  |  |  | 5–10 µM
O=C(Oc1ccc(C(c2c(O)c3ccccc3oc2=O)c2c(O)c3ccccc3oc2=O)cc1)c1ccc(Cl)cc1 | 3′ processing |  |  |  | 2.9 µM
COc1c(O)ccc2c1-c1c3c(cc4c1[C@H](C2)NCC4)OCO3 |  |  |  |  | >100 µM
Nc1ccn([C@H]2C[C@H](OP(=O)(O)OC[C@H]3OC[C@@H](n4ccc(=O)[nH]c4=O)[C@@H]3O)[C@@H](COP(=O)(O)O)O2)c(=O)n1 | strand transfer |  |  |  | 6 µM
CC[C@@]1(O)C(=O)OCc2c1cc1n(c2=O)Cc2cc3cc4c(cc3nc2-1)OCO4 | 3′ processing / substrate cleavage |  |  |  | >100 µM
O=C1Sc2ccc(Cl)cc2C(=O)N2CCSC12 | strand transfer |  |  | RF | 90 µM
CCOC(=O)C1=C(O)CCC2(C(=O)OC(C)(C)OC2=O)[C@H]1c1ccco1 | strand transfer |  |  |  | 43.8 µM
O=C(/C=C/c1ccc(O)c(O)c1)O[C@@H]1CC(O)(C(=O)O)C[C@@H](OC(=O)/C=C/c2ccc(O)c(O)c2)C1O | disintegration |  |  |  | 0.66 µg/mL
CCCCCC(=O)c1c(O)cc2c(c1O)C(=O)c1c(O)cc(O)cc1C2=O | 3′ processing |  | Mn2+ |  | 30 µM
COc1ccc(OC)c2c1c(/C(O)=C/C(=O)C(=O)O)cn2Cc1ccc(F)cc1 |  |  |  |  | 0.06 µM
O=C1C(=O)N(CC2CC2)C(c2ccccc2)/C1=C(/O)c1ccccc1 | 3′ processing |  |  |  | >100 µM
O=C1c2ccc(O)c(O)c2C(=O)N1Cc1ccc(F)c(F)c1 | strand transfer |  |  |  | 0.4 µM
CCOC(=O)C(C(=O)OCC)c1cn(S(=O)(=O)c2ccc(C)cc2)c2ccc(NC(=O)c3cccc([N+](=O)[O-])c3)cc12 | strand transfer / fluorescence | Y143R |  |  | 24.8 µM
NCCCC[C@H](N)C(=O)NC[C@H]1O[C@H](O[C@H]2[C@H](O)[C@@H](O)[C@H](N)C[C@@H]2N)[C@H](N)[C@@H](O)[C@@H]1O | ELISA |  |  |  | >100 µg/mL
O=C(/C=C(\O)c1ccccc1)c1ncn[nH]1 | strand transfer |  |  |  | 43 µM
CC1=CCCC2=C[C@@H](OC2=O)c2c(C)coc2C1 |  |  |  |  | >100 µM
Oc1cc(O)c2c(c1)O[C@H](c1ccc(O)c(O)c1)[C@@H](O)C2 | 3′ processing |  |  |  | <100 µM
[N-]=[N+]=NC(=O)c1ccc(S(=O)(=O)c2ccc(F)cc2)cc1 | 3′ processing |  |  |  | 90 µM
Cc1ccc(CN2Cc3ccc(O)c(O)c3C2=O)cc1F | 3′ processing |  |  |  | 35 µM
CCCCCCNC(=O)OCCCCCCNC(=O)OC1CCN(C(=O)Oc2ccc(Oc3ccccc3)cc2)CC1 | ELISA / strand transfer |  |  |  | 0.85 µM
CCCCCCCCCCCCCCCCCc1cc(O[C@@H]2O[C@H](CO)[C@H](O)[C@H](O)[C@H]2O)cc(O)c1C(=O)Oc1cc(C)c(C(=O)O)c(O)c1 | strand transfer |  |  |  | 50 µM
N#Cc1ccc(S(=O)(=O)c2ccc(C#N)cc2)cc1 | strand transfer |  |  |  | >100 µM
Cc1ccc(S(=O)(=O)n2cc(C(C(=O)O)C(=O)O)c3cc(NC(=O)c4ccc(F)cc4)ccc32)cc1 | strand transfer / fluorescence | G140S |  |  | >25 µM
O=c1oc2ccccc2c(O)c1C(c1ccc(N(CCCl)CCCl)c([N+](=O)[O-])c1)c1c(O)c2ccccc2oc1=O | strand transfer |  |  |  | 4 µM
Cc1ccc(C(=O)Oc2ccc(C(c3c(O)c4ccccc4oc3=O)c3c(O)c4ccccc4oc3=O)cc2)cc1 | 3′ processing |  |  |  | 0.5 µM
O=C1c2ccccc2C(=O)c2c1cc(S(=O)(=O)O)c(O)c2O |  |  |  |  | 3 µM
CC(=O)Oc1cc(OC(C)=O)c2c(c1)C(=O)c1cc(C)cc(OC(C)=O)c1C2=O | 3′ processing |  | Mg2+ |  | >200 µM
NCCCNCCCCNCCCN | 3′ processing / substrate cleavage |  |  |  | >100 µM
O=c1oc2ccccc2c(O)c1C(c1ccc(OS(=O)(=O)c2ccc3ccccc3c2)cc1)c1c(O)c2ccccc2oc1=O | 3′ processing |  |  |  | 2.1 µM
COc1ccc2c(c1O)-c1c(OC)c3c(c4c1[C@H](C2)N(C)CC4)OCO3 |  |  |  |  | >100 µM
O=c1oc2ccccc2c(O)c1C(c1ccc(C(c2c(O)c3ccccc3oc2=O)c2c(O)c3ccccc3oc2=O)cc1)c1c(O)c2ccccc2oc1=O | 3′ processing |  |  |  | 1.1 µM
C=C1[C@H]2C[C@H]2[C@]2(C)Cc3occ(C)c3[C@H](OC(C)=O)[C@@H]12 |  |  |  |  | >100 µM
CS(=O)(=O)CS(=O)(=O)Nc1cc(O)c(O)c2c1C(=O)N(Cc1ccccc1)C2=O | 3′ processing |  |  |  | 8.3 µM
O=C(O)C1(O)C[C@@H](O)C(O)[C@H](O)C1 | disintegration |  |  |  | >50 µg/mL
CCNc1[nH]c(=O)n(O)c(=O)c1C(=O)NCc1cccc(F)c1 | strand transfer |  |  | IIIB | 10 µM
O=C(O)C(=O)/C=C(\O)c1cn(Cc2ccc(F)cc2)c2ccc(Br)cc12 | strand transfer / fluorescence |  |  |  | 0.2 µM
O=C1C=CC(=O)c2c(O)ccc(O)c21 | 3′ processing / substrate cleavage |  |  |  | 5.73 µM
Nc1c(Br)cc2c([nH]c(=O)c3cc(Br)ccc32)c1Br | 3′ processing |  | Mg2+ |  | 220 µM
Nc1c2ccccc2nc2ccccc12 | strand transfer |  |  |  | >100 µM
O=C1c2c(ccc(O)c2O)CN1Cc1ccc2[nH]ccc2c1 | 3′ processing |  |  |  | >333 µM
O=c1oc2ccccc2c(O)c1C(c1ccc(OS(=O)(=O)c2cccc3ccccc23)cc1)c1c(O)c2ccccc2oc1=O | 3′ processing |  |  |  | 1.5 µM
O=[N+]([O-])c1cc(S(=O)(=O)c2ccc(N(CCO)CCO)c([N+](=O)[O-])c2)ccc1N(CCO)CCO | 3′ processing |  |  |  | >100 µM
O=c1oc2c(O)c(O)cc3c(=O)oc4c(O)c(O)cc1c4c23 |  |  |  |  | 5 µM
O=C1c2ccc(O)c(O)c2C(=O)N1Cc1cccc(Br)c1 | strand transfer |  |  |  | 0.44 µM
CC[C@@]1(O)C(=O)NCc2c1cc1n(c2=O)Cc2cc3ccccc3nc2-1 | absorbance |  |  |  | >100 µM
CCN(CC)CCCC(C)Nc1c2ccc(Cl)cc2nc2ccc(OC)cc12 | 3′ processing / substrate cleavage |  |  |  | >100 µM
CCOC(=O)C(C(=O)OCC)c1cn(Cc2cc(F)ccc2F)c2ccc(F)cc12 | strand transfer / fluorescence | Y143R |  |  | >25 µM
COc1ccc(NC(=O)C/C(C)=N/N=C(N)N)c([N+](=O)[O-])c1 | 3′ processing |  | Mn2+ |  | >200 µM
Cc1ccc(S(=O)(=O)n2cc(C(C(=O)O)C(=O)O)c3cc(NC(=O)c4cc(F)c(F)c(F)c4)ccc32)cc1 | strand transfer / fluorescence | G140S |  |  | >25 µM
COc1cc(NC(C)CCCN)c2ncccc2c1 | 3′ processing / substrate cleavage |  |  |  | 15.3 µM
CC1=C(C[C@]2(C)C(C=O)=C(C)[C@H]3C[C@H]32)C(=O)OC1=O |  |  |  |  | >100 µM
O=C1Sc2ccccc2C(=O)N2CCSC12 | strand transfer |  |  | RF | 140 µM
CC1(C)OC(=O)/C(=C/C(=O)c2cn(Cc3cc(F)ccc3F)c3ccc(F)cc23)O1 | strand transfer / fluorescence |  |  |  | 9.6 µM
COc1ccc2c(c1)C(=O)N1CSCC1C(=O)S2 | 3′ processing |  |  | RF | 215 µM
O=C(NCc1ccc(F)cc1)c1nc(N2CCCCS2(=O)=O)c2cccnc2c1O | 3′ processing |  |  |  | 4 µM
Cc1ccnc(NS(=O)(=O)c2ccc(N=Nc3cc4ccccc4c(C(=O)O)c3O)cc2)n1 | 3′ processing |  | Mn2+ |  | 21 µM
CC(C)(C)c1ccc(S(=O)(=O)Oc2ccc(C(c3c(O)c4ccccc4oc3=O)c3c(O)c4ccccc4oc3=O)cc2)cc1 | 3′ processing |  |  |  | 3.1 µM
O=C1c2c(ccc(O)c2O)CN1Cc1ccc(F)cc1 | 3′ processing |  |  |  | 282 µM
O=C(NCc1ccc(F)cc1)c1nc(N2CCCCS2(=O)=O)c2cccnc2c1O | 3′ processing |  |  |  | 0.085 µM
O=C(O)C(=O)/C=C(\O)c1cn(Cc2cc(F)ccc2F)c2ccc(Br)cc12 | strand transfer / fluorescence | G140S |  |  | 9.2 µM
C=C1[C@H]2C[C@H]2[C@]2(C)Cc3occ(C)c3[C@H](O)[C@@H]12 |  |  |  |  | >100 µM
C/C=C/C=C/[C@H]1C(C)=C[C@H]2C[C@@H](C)CC[C@@H]2[C@@]1(C)/C(O)=C1/C(=O)[C@H](CO)N(C)C1=O | strand transfer |  |  |  | 15–20 µM
CC1(C)OC(=O)/C(=C/C(=O)c2c[nH]c3ccc(Br)cc23)O1 | strand transfer / fluorescence | G140S |  |  | 10.6 µM
O=C(c1ccccc1)c1cccc(CN2C(=O)c3ccc(O)c(O)c3C2=O)c1 | strand transfer |  |  |  | 1.1 µM
O=C(O)COc1ccc(S(=O)(=O)c2ccc(OCC(=O)O)c([N+](=O)[O-])c2)cc1[N+](=O)[O-] | strand transfer |  |  |  | 64.2 µM
O=C(Oc1ccc(C(c2c(O)c3ccccc3oc2=O)c2c(O)c3ccccc3oc2=O)cc1)c1ccc(Br)cc1 | 3′ processing |  |  |  | 1.1 µM

Repeating the final 7 entries:

structure,method,mutations,conditions,strain or isolate,value
O=C(O)C(=O)/C=C(\O)c1cn(Cc2cc(F)ccc2F)c2ccc(Br)cc12,strand transfer / fluorescence,G140S,,,9.2 µM
C=C1[C@H]2C[C@H]2[C@]2(C)Cc3occ(C)c3[C@H](O)[C@@H]12,,,,,>100 µM
C/C=C/C=C/[C@H]1C(C)=C[C@H]2C[C@@H](C)CC[C@@H]2[C@@]1(C)/C(O)=C1/C(=O)[C@H](CO)N(C)C1=O,strand transfer,,,,15–20 µM
CC1(C)OC(=O)/C(=C/C(=O)c2c[nH]c3ccc(Br)cc23)O1,strand transfer / fluorescence,G140S,,,10.6 µM
O=C(c1ccccc1)c1cccc(CN2C(=O)c3ccc(O)c(O)c3C2=O)c1,strand transfer,,,,1.1 µM
O=C(O)COc1ccc(S(=O)(=O)c2ccc(OCC(=O)O)c([N+](=O)[O-])c2)cc1[N+](=O)[O-],strand transfer,,,,64.2 µM
O=C(Oc1ccc(C(c2c(O)c3ccccc3oc2=O)c2c(O)c3ccccc3oc2=O)cc1)c1ccc(Br)cc1,3′ processing,,,,1.1 µM